Source: PMC5933747 (PLoS ONE, 2018)

System: native TTX-S NaV channels in mouse DRG neurons
Assay: Manual whole cell patch clamp, native TTX-S NaV channels in mouse DRG neurons
Assay type: cell-based
Conditions: 1 μM (highest concentration tested), 20% of NaV channels inactivated, n = 2

Question: How did the “inhibition of TTX-S NaV channels in mDRG neurons” value turn out when `C#CC[C@H](N)C(=O)N[C@@H](Cc1ccc(O)cc1)C(=O)N[C@H]1CSSC[C@@H]2NC(=O)[C@@H]3CSSC[C@@H](C(=O)N[C@@H](CCCNC(=N)N)C(=O)N[C@@H](CCCCN)C(=O)N[C@@H](CCC(=O)O)C(=O)N[C@H](C(N)=O)[C@@H](C)CC)NC(=O)[C@H](Cc4c[nH]c5ccccc45)NC(=O)[C@H](CC(C)C)NC(=O)[C@H](CCCCN)NC(=O)[C@H](CSSC[C@H](NC(=O)[C@H]([C@@H](C)O)NC(=O)[C@H](Cc4c[nH]c5ccccc45)NC(=O)[C@H](CCCC)NC(=O)[C@H](Cc4c[nH]c5ccccc45)NC(=O)[C@H](CCCCN)NC(=O)[C@H](CCC(N)=O)NC1=O)C(=O)N[C@@H](CC(=O)O)C(=O)N[C@@H](CO)C(=O)N[C@@H](CCCCN)C(=O)N[C@@H](CCCNC(=N)N)C(=O)N[C@@H](C)C(=O)N3)NC(=O)[C@H](CCCNC(=N)N)NC(=O)[C@H](CCC(=O)O)NC(=O)CNC(=O)[C@H](CCC(=O)O)NC2=O` [AM-8394, Pra-[Nle6;Glu19,28]JzTx-V(1–29)] was run?
Answer: 3.5 ± 1.1%
